Data source: PubChem BioAssay AID504761 (Drosophila RNAi Screening Center, 2011)

- Assay: 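Genome-wide fly cell screen for genes dengue virus requires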 (primary screen)
- Cells: D.Mel-2 cells from Drosophila
- Reagents: long dsRNA against Drosophila genes
- Treatment: infection with dengue virus type 2; dose and infection time not stated
- Measured: 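Cells stained for dengue envelope protein and imaged; percent of infected cells per well on duplicate plates, ranked by infection, with stained nuclei counted for cell number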
- Direction: infection score: higher = more virus-infected cells; cell count: higher = more cells in the well
- Rule for the call: 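Very low infection ranking in both replicate wells (chance probability at most 0.065), then a retest showing infection dropped 1.5-fold or more at p below 0.05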
- Meaning of the calls: active = confirmed: knock-down lowers infection; inactive = not picked or not confirmed
In all, the deposit lists about 22,000 reagents; this is a random part of those with a known target gene and a result. Over the whole deposit, 116 (0.52%) are marked active. 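Calls depend on retest data that are not deposited; infection was ranked per plate without normalising between plates; the unit of the infection score is not given.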 Raw values vary from plate to plate and are shown uncorrected. Entries without a mark were called inactive. A plus sign joins genes that one reagent is predicted to hit. Not given: the amount of reagent, the time to read-out.

gene | PubChem SID | infection score, replicate 1 | infection score, replicate 2 | cell count, replicate 1 | cell count, replicate 2
Cyp4ac3 | SID104183096 | 15.1 | 1.85 | 5653 | 6599
RpL3 + CG6693 | SID104195889 | 6.52 | 3.75 | 5812 | 5891
CG6329 | SID104186768 | 15.7 | 7.08 | 5850 | 6062
CG8834 | SID104187075 | 9.76 | 12.3 | 6785 | 6335
sel | SID104186024 | 11 | 8.13 | 6283 | 6466
MFS1 | SID104183907 | 9.92 | 14.9 | 6744 | 6724
MFS1 | SID104206470 | – | 19.7 | 465 | 6356
CG13692 | SID104180153 | 8.76 | 5.21 | 7132 | 6908
CG13692 | SID104207129 | – | – | 401 | 368
kek2 | SID104183344 | 4.18 | 6.02 | 6191 | 6026
kek2 | SID104204733 | 19 | 6.59 | 4822 | 6010
Alp6 | SID104186502 | 22.2 | 8.38 | 5218 | 6180
CG14744 | SID104186272 | 6.62 | 8.21 | 6451 | 5689
CG18662 | SID104182483 | 9.23 | 7.87 | 5514 | 6781
CG14803 | SID104198348 | – | 3.54 | 386 | 594
CG13526 | SID104183960 | 9.93 | 6.45 | 5388 | 6144
LPCAT | SID104197949 | 4.65 | 3.85 | 6403 | 6721
LPCAT | SID104198049 | 3.04 | 2.23 | 6587 | 6773
CG13138 | SID104182027 | 1.27 | 4.31 | 6590 | 6665
CG15423 | SID104180229 | 5.29 | 1.7 | 6501 | 6873
CG15423 | SID104208131 | – | 1.92 | 348 | 832
unc-4 | SID104200173 | 4.16 | 3.78 | 5942 | 6171
unc-4 | SID104201648 | 1.71 | 8.13 | 6554 | 3838
unc-4 | SID104204005 | 4.98 | 1.62 | 6062 | 6353

Targets listed so far whose target name begins with K or k (2):
gene | PubChem SID | infection score, replicate 1 | infection score, replicate 2 | cell count, replicate 1 | cell count, replicate 2
kek2 | SID104183344 | 4.18 | 6.02 | 6191 | 6026
kek2 | SID104204733 | 19 | 6.59 | 4822 | 6010
